PubChem BioAssay AID504761 | Drosophila RNAi Screening Center | 2011
The screen tested about 22,000 reagents; this is an unselected part of those with a known target gene and a result. Of all reagents, 116 (0.52%) were called active. 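Calls depend on retest data that are not deposited; infection was ranked per plate without normalising between plates; the unit of the infection score is not given.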 Raw values vary from plate to plate and are shown uncorrected. Unmarked entries are inactive. Names joined by + are all predicted targets of the reagent. The record does not give: the amount of reagent, the time to read-out.

- Screen: 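Genome-wide fly cell screen for genes dengue virus requires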 (primary screen)
- System: D.Mel-2 cells from Drosophila
- Reagent: long dsRNA against Drosophila genes
- Conditions: infection with dengue virus type 2; dose and infection time not stated
- Read-out: 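Cells stained for dengue envelope protein and imaged; percent of infected cells per well on duplicate plates, ranked by infection, with stained nuclei counted for cell number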
- Reading the numbers: infection score: higher = more virus-infected cells; cell count: higher = more cells in the well
- Call rule: 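Very low infection ranking in both replicate wells (chance probability at most 0.065), then a retest showing infection dropped 1.5-fold or more at p below 0.05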
- Meaning of the calls: active = confirmed: knock-down lowers infection; inactive = not picked or not confirmed

no.	Gene	dsRNA	infection score, replicate 1	infection score, replicate 2	cell count, replicate 1	cell count, replicate 2
1	S6k (GeneID 38654)	DRSC11276	6.05	5.26	5817	5642
2	Wwox (GeneID 34090)	DRSC03030	1.39	7.4	5693	5800
3	Wwox (GeneID 34090)	DRSC22872	0.76	5.32	6177	6106
4	Wwox (GeneID 34090)	DRSC25933	1.41	5.19	6311	6187
5	CG18294 (GeneID 40115)	DRSC09891	8.21	9.31	6346	5886
6	Pcd (GeneID 43499)	DRSC16785	11.4		1054	398
7	inaF-B + inaF-D + inaF-C + 1 more	DRSC20342	20.3	9.44	5665	5740
8	inaF-B + inaF-D + inaF-C + 1 more	DRSC28607	12.3	5.32	5142	4982
9	CG34159 (GeneID 34353)	DRSC23222	2.72	1.87	6864	6914
10	Karl (GeneID 32131)	DRSC19883	8.63	6.05	6789	6512
11	CG31782 (retired record) (GeneID 318938)	DRSC01554	2.33	0.81	6001	6078
12	CG31782 (retired record) (GeneID 318938)	DRSC01556	4.76	3.23	5922	6102
13	CG8289 (GeneID 32741)	DRSC20101	2.54	1.75	6579	6956
14	CG8289 (GeneID 32741)	DRSC25677	18.7	7.9	6107	6023
15	pigeon (GeneID 35200)	DRSC03565	10.9	5.92	6255	6518
16	CG18367 (GeneID 37255)	DRSC06545	1.25	14.8	6583	6123
17	CG18367 (GeneID 37255)	DRSC28507	7.84	8.36	5751	5480
18	MCPH1 (GeneID 36272)	DRSC06309	10.1	25.4	4984	5331
19	MCPH1 (GeneID 36272)	DRSC07308	11.1	14.4	6662	6822
20	MCPH1 (GeneID 36272)	DRSC22536	2.46	13.2	6372	5876
21	MCPH1 (GeneID 36272)	DRSC28302	0.36	10.2	281	3160
22	UbcE2M (GeneID 38916)	DRSC10828	10.8	8.43	5525	4995
23	gammaCOP (GeneID 43717)	DRSC16955	1.98	0.92	555	649
24	Upf1 (GeneID 32153)	DRSC19667	6.58	2.17	4771	5342
25	Cp190 (GeneID 41848)	DRSC16607	28.8	22.8	4474	3145
26	CG2186 (GeneID 32017)	DRSC19838	10.3	4.01	6371	6364
27	CG2186 (GeneID 32017)	DRSC25389	4.76	8.15	5654	5643
28	CG43367 (GeneID 38505)	DRSC08299	3.51	2.64	5987	6087
29	CG43367 (GeneID 38505)	DRSC08301	1.78	1.5	6476	5803
30	CG43367 (GeneID 38505)	DRSC08309	4.57	4.1	5992	5921
31	CG43367 (GeneID 38505)	DRSC24732	3.23	11.2	6260	6170
32	Tis11 (GeneID 32222)	DRSC23110	1.79	7.63	6603	6458
33	CG17300 (GeneID 39489)	DRSC10260	2.97	1.97	6575	6558
34	CG17300 (GeneID 39489)	DRSC28904	11	1.69	4275	1122
35	Gr64a (GeneID 117481)	DRSC21713	24.9	8.35	4201	6177
36	DppIII (GeneID 40996)	DRSC16241	7.58	12.3	6899	5820
37	DppIII (GeneID 40996)	DRSC27801	3.09	8.76	6602	7044
38	Sr-CII (GeneID 44219)	DRSC07557	16.4	6.12	5553	5780
39	Sr-CII (GeneID 44219)	DRSC25606	3.66	4.34	6205	6608
40	MstProx + Mst84Da	DRSC12597	7.99	4.04	6487	6216
41	brun (GeneID 35325)	DRSC02706	14.6	8.8	5986	6525
42	CR40441 (GeneID 10178882)	DRSC22916	1.2	2.25	6832	7319
43	su(r) (GeneID 31858)	DRSC18705	1.49	7.64	6734	6990
44	Rcd-1r + CG13102	DRSC03266	8.33	0.69	4537	6510
45	Slc25A46b (GeneID 35081)	DRSC02888	10.5	11.6	6102	3177
46	Vha68-2 (GeneID 45012)	DRSC02721	19.2	13.6	5702	4886
47	Vha68-2 (GeneID 45012)	DRSC28637	12.6	9.96	5501	5229
48	pbl (GeneID 38879)	DRSC11381	7.2	2.77	5082	5562
49	pbl (GeneID 38879)	DRSC26301	6.64	14.4	4832	4825
50	fwe (GeneID 39720)	DRSC10594	14.8	6.64	5822	5934
51	fwe (GeneID 39720)	DRSC21400	4.97	3.13	5071	5654
52	CG17224 (GeneID 33510)	DRSC00489	1.79	6.46	6481	6530
53	CG1486 (GeneID 33108)	DRSC20508	1.71	1.41	6827	6689
54	CG1486 (GeneID 33108)	DRSC28958	10.4	8.82	1721	2358
55	CG13531 (GeneID 37627)	DRSC04173	10.6	22.8	6373	6385
56	CG11380 (GeneID 31065)	DRSC23223	2.25	4.26	6809	6193
57	CG11380 (GeneID 31065)	DRSC29190	27.8	26.1	6110	4268
58	AANATL7 (GeneID 31236)	DRSC18616	0.91	7.41	6826	6084
